According to PMC4707532:

Biological target: Human TLR-2 (human) (UniProt O60603)
Test: SPR; Biacore X100; TLR immobilised on CM5 chip by amine coupling (300-500 RU); lubricin injected at at least 5 concentrations, 0.576–420 μg/mL, 30 μL/min, contact 1 min, 25 °C; PBS with 0.01% (v/v) Tween 20; regeneration 1 M NaCl

“Full length recombinant human lubricin protein (rhPRG4) (from UniProt Q92954 25-1404) (natural protein; other documents disagree on this pair)” showed a Kd of 330 nM.
